# Screening data, single-dose tests

Measurements from “University of Dundee, Small-Polar-MMV Screening Library” (2021), ChEMBL document CHEMBL3988442.

The filed quantity is “Percent Effect” (%). How 0% and 100% were set is not recorded. Most values in the screen are low, and negative values occur. This is part of a subset picked to be rich in strong results. Two or more numbers in one place are separate tests of the same structure; such repeats can differ widely. A dash means the value is not listed here; it may have been measured.

Mtb glucose medium: 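Whole-cell growth test on Mycobacterium tuberculosis, read after 3 days in glucose-containing 7H9 medium; the read-out is not stated. Concentration: 50 µM. The record gives no direction; compounds that gave an IC50 in retests scored well above the rest, so higher reads as more growth inhibition. Of about 69,000 compounds tested this way, about 760 (1.1%) reached 50% or more in at least one test.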
Mtb cholesterol medium: 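Phenotypic screen: M. tuberculosis growth, cholesterol and DPPC medium, 4 days; the read-out is not stated. Concentration: 50 µM. Higher reads as more growth inhibition (inferred: compounds with an IC50 in retests scored well above the rest). Size under these conditions: about 69,000 compounds, about 370 of them at 50% or above in at least one test.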

compound,Mtb glucose medium,Mtb cholesterol medium
COc1ccc(C(N)=O)cc1NCc1ncc(C(C)(C)C)o1,-42.78%,-
c1csc(CN2CCCN(c3ccc(Cn4ccnc4)cn3)CC2)c1,13.73%,-6.669%
Cc1cc(NC(=O)C(C)Oc2ccc3c(c2)OCO3)no1 (stereo unspecified),16.64%,-8.592%
O=C1N(Cc2ccc(F)cc2)CCCC12CCN(C1CCSCC1)C2 (stereo unspecified),49.19% and 68.7%,-
[H][C@]12CCN(C(=O)c3cc(C)on3)C[C@@]1([H])[C@H](CN1CCCC1)OC2,19.08%,-
CC(C)n1ccc(C(=O)OCC2CC(=O)N(Cc3ccccc3)C2)n1 (stereo unspecified),13.34%,8.87%
CN(CC1CCN(c2ccccc2)C1)c1ccc(Cn2ccnc2)cn1 (stereo unspecified),59.97% and 48.5%,67.99% and 49.16%
CCC1=NC(SCC(=O)c2ccc(C)cc2)c2cc(CC)sc2N1 (stereo unspecified),-44.06%,-
c1ccc2oc(NC3CCCN(Cc4noc(C5CC5)n4)C3)nc2c1 (stereo unspecified),69.95%,-
Cc1ccc(-c2cc(C(=O)NCCN3CCCS3(=O)=O)[nH]n2)cc1,-10.85%,-44.53%
CCOc1cc(C(=O)N2CCCC2)cc2occc12,-1.141%,-
C[C@@H]1CN(C2CCN(Cc3nn(C)c4cccc(Cl)c34)CC2)C[C@H](C)O1,3.416%,-
COc1cccc(CN(C)C(=O)CN2CC(n3nc(C)cc3C)C2)c1,0.7193% and -0.7445%,-
COc1ccc(C[C@H]2CN(C(=O)c3cc(C)no3)CC[C@H]2OC)cc1,16.57%,-
CN(Cc1nc2ccccc2o1)C1CCCN(c2cccnn2)C1 (stereo unspecified),106.3%,-
CCCc1cc(C(=O)N2C[C@H](O)[C@@H](N3CCCC3)C2)ccn1,20.06%,-
COc1ccnc(NC(Cc2ccccc2)C(=O)N(C)C)n1 (stereo unspecified),-,33.38% and 3.454%
CC(C)c1nc(CN2CCC(CO)CC2)cs1,-44.26%,-
Cc1noc(CCCC(=O)N2CCCCC2c2nccs2)n1 (stereo unspecified),-,-35.45%
N#Cc1ccc(C(=O)NCCCNc2ccc(C(F)(F)F)cn2)cc1,19.44%,29.3%
Cc1cc(C)n(CC(=O)NCc2ccccn2)n1,0.1704% and -37.15%,-
CN(Cc1nc2ccccc2n1C)CC1CCCN1c1cccnn1 (stereo unspecified),58.48%,-
NCC1CN(c2nc(-c3cccnc3)nc3c2CCNCC3)CCO1 (stereo unspecified),42.1%,-
COc1ccc(CCC(C)Nc2cccc(SC)c2)cc1 (stereo unspecified),50.98%,69.57%
COc1ccc(C2CCCN2c2ccc(C#N)cn2)c(OC)c1 (stereo unspecified),51.42%,-
CCSc1nc2ccccc2c(=O)n1OCC(=O)OC,67.21%,29.21%
c1cnnc(N2CCCC(NCc3nnc(-c4ccco4)o3)C2)c1 (stereo unspecified),-19.93%,-
Cn1ccnc1CN1CCN(CC(O)c2cccc(F)c2)CC1 (stereo unspecified),-2.474%,-
CC(C)C(NC(=O)c1cnc(N2CCOCC2)nc1)c1cccs1 (stereo unspecified),60.96%,-
O=C(COCC(F)(F)F)NC1CCCc2cc(OC(F)F)ccc21 (stereo unspecified),51.08%,-
c1ccc(CCc2n[nH]c(C3CCC3)n2)cc1,-,77.09%
COCCNC(=O)CN1CC=C(n2c(C)nc(=O)c3ccccc32)CC1,22.71%,-
CC(NCc1ccc(-c2ccc(Cl)cc2)o1)c1nnc2n1CCC2 (stereo unspecified),-10.58%,-
CC1CCCN(C(=O)c2nnn(-c3ccc(C(F)(F)F)cc3)n2)C1 (stereo unspecified),73.16% and 38.68%,-
O=C1N(Cc2ccc(F)c(F)c2)CCCC1(O)CNCc1ncc[nH]1 (stereo unspecified),-7.36%,-
CS(=O)(=O)NC1CCN(Cc2coc(-c3ccccc3)n2)CC1,-18.69% and 0.6123%,-
Cc1ccc(N2N=C(C(=O)NCC3CC3)S(=O)(=O)c3cccnc32)cc1,10.91%,-13.82%
Cc1noc(C(C)C)c1C(=O)NCc1ccc2c(c1)OCCO2,2.519%,8.808%
Cc1nc(NCCSc2cnn[nH]2)c2c(C)noc2n1,-,87.3%
CNc1cc(C)nc(N2C[C@H](C3CC3)[C@@H](N)C2)n1,9.983%,5.037%
Cc1nccn1CCCn1cncc1-c1ccc2c(c1)CCC(C)N2C.Cl (stereo unspecified),43.25%,8.504% and 14.31%
CCOc1ccc(Cl)cc1CCNC(=O)c1ccc(=O)n(C)c1,-25.67%,13.65%
c1ccc2sc(CN3CCOC(Cn4cccn4)C3)nc2c1 (stereo unspecified),7.818%,-27.25%
[H][C@@]12CCC(=O)N(CCc3ccccc3)[C@]1([H])CCN(Cc1cnn(C)c1)C2,-8.181%,-
Cc1sc(Br)cc1S(=O)(=O)NCc1ccccn1,50.74%,-
CCn1c(NCc2ccccc2)nc2c(C)nn(C)c2c1=O,16.54%,14.94%
CC(C(=O)NCCOc1ccccc1)n1cncn1 (stereo unspecified),-20.33%,-
O=C(Cc1ccccc1Cl)Nc1cnn(C2CCOC2)c1 (stereo unspecified),-,-2.142%
CC[C@H](C)Nc1ncc(-c2ccn(C3CCN(C(C)=O)CC3)n2)cn1,22.39%,-
CNS(=O)(=O)c1cccc(CNc2ccc(C(F)(F)F)nn2)c1,3.734%,-
CC(C)CC(=O)N1CCC2(CC1)OCCO2,-19.55%,-
CC(Cn1cccn1)NCc1csc(-c2ccccc2)n1 (stereo unspecified),39.45%,-
Cc1n[nH]c(C)c1CCNC(=O)Nc1ccc(S(C)(=O)=O)cc1,13.75% and -7.801%,5.176%
CCC(=O)N1CCN(C(=O)CCn2cccn2)CC1,7.324%,-
CCn1ccc(-c2cc(NCCCOc3cccc(C)c3)nc(C)n2)n1,-,74.82%
Cl.Fc1ccc(-c2cnc(C3CCCN3)cn2)cc1 (stereo unspecified),18.3%,20.32% and 8.44%
c1ccc(-c2nc3c(c(NCc4n[nH]c5c4CCC5)n2)CCNC3)cc1,82.47%,57.51%
Cc1ccnn1CCC(=O)N1CCCC2(C1)NC(=O)c1ccccc1O2 (stereo unspecified),-,7.984% and -6.031%
Cc1ccc(NC2CCN(C(=O)C(C)n3cncn3)CC2)nn1 (stereo unspecified),-4.465% and 98.34%,-
Cc1sc(CN)nc1-c1ccc(Cl)cc1Cl,17.12%,10.47%
Fc1ccc(F)c(CN2CCC(c3cnccn3)CC2)c1,26.95%,17.51%
Clc1ccc(C2(CNC3=NCCN3)CC2)cc1.I,32.26%,-
CSc1nsc(NC(=O)N(C)Cc2ccc3c(c2)OCO3)n1,26.86%,-
O=C(COCc1nc(-c2ccncc2)no1)N1CCCC1,-2.336%,-
Cn1c(C2CC2)nc2cc(NC(=O)C3CCOC3)ccc21 (stereo unspecified),24.21%,-
Cl.O=S(=O)(N1CCCCC1)N1CCc2nc(C3CCNCC3)ncc2C1,57%,-
Cn1nnnc1SCC1(O)CCCCC1,8.912%,-
CCOCC1CCN(C(=O)C(c2ccccc2F)N(C)C)CC1 (stereo unspecified),-,67.06%
[H][C@]12CC[C@]([H])(CN(S(=O)(=O)c3cccnc3)C1)N(Cc1ccccn1)C2,-2.536%,-
Cc1cnn(CCNc2cnc3ccccc3n2)c1,5.619%,-
CCOCCSc1nnc(Cc2ccccc2F)o1,77.31%,64.66% and 60.02%
Cc1ccccc1-n1c(O)cc(C)c(C#N)c1=O,-23.85%,-3.188%
CCNc1nnc(SC(C(=O)NCc2cccnc2)C(C)C)s1 (stereo unspecified),1.826% and 12.8%,4.478%

Repeated from the top, 4 entries:

| compound | Mtb glucose medium | Mtb cholesterol medium |
|---|---|---|
| `COc1ccc(C(N)=O)cc1NCc1ncc(C(C)(C)C)o1` | -42.78% | - |
| `c1csc(CN2CCCN(c3ccc(Cn4ccnc4)cn3)CC2)c1` | 13.73% | -6.669% |
| `Cc1cc(NC(=O)C(C)Oc2ccc3c(c2)OCO3)no1` (stereo unspecified) | 16.64% | -8.592% |
| `O=C1N(Cc2ccc(F)cc2)CCCC12CCN(C1CCSCC1)C2` (stereo unspecified) | 49.19% and 68.7% | - |